These are literature values, as cited in patent US8221566B1.

This is a selection: effects in other tests are not listed, and their absence says nothing.

The data set deals with Pseudomonas aeruginosa. The note with it: aqueous, in 5 min; cited from earlier work.

Consider hydrogen fluoride, for which the “Concentration of aq. HF that destroys the organism” value is 200 ppm.
